Pooled drug test results. Numbers come from NIAID ChemDB, via PubChem.

Common to all: tests in culture; organism: HIV-1

ECn: concentration that inhibits the pathogen or its effect by n%.

COC(=O)N[C@H]1C(=O)Nc2ccc(Cl)cc2[C@@]1(C#CC1CC1)C(F)(F)F ; cell line: MT-2 ; measure: EC50 ; strain: RF ; value: <0.212 µM
COc1cc(C2OC[C@@H]3[C@@H](c4cc(OC)c(O)c(OC)c4)OC[C@H]23)cc(OC)c1O ; read by: ELISA ; cell line: C8166 ; measure: EC50 ; strain: IIIB ; value: 79.5 µM
CCC(F)(F)COc1ccc(-c2cnc(C)c([C@H](OC(C)(C)C)C(=O)O)c2N2CCC(C)(CC)CC2)nc1 ; read by: luminescence ; cell line: MT-2 ; measure: EC50 ; strain: NL4-3 ; value: 4.6 µM
O=C(C(=O)N1CCN(C(=O)c2ccccc2)CC1)c1c[nH]c2cccc(F)c12 ; cell line: MT-2 ; measure: EC50 ; strain: NL4-3 ; value: 0.0308 µM
C=C(C)[C@@H]1CC[C@]2(C(=O)O)CC[C@]3(C)[C@H](CC[C@@H]4[C@@]5(C)CC[C@H](OC(=O)CCCC(=O)OC[C@H]6OC(n7cc(C)c(=O)[nH]c7=O)C[C@@H]6N=[N+]=[N-])C(C)(C)[C@@H]5CC[C@]43C)[C@@H]12 ; cell line: MT-4 ; measure: EC50 ; strain: IIIB ; value: 0.012 µM
CN1[C@H](c2cccc(Cl)c2)c2ccccc2S1(=O)=O ; read by: p24 / RT activity ; measure: EC50 ; value: 5.28 µM
Cc1cn([C@H]2C=C[C@@H](COC(=O)NCCc3cccs3)O2)c(=O)[nH]c1=O ; read by: p24 ; cell line: PBMC ; measure: EC50 ; strain: IIIB ; value: 14 µM
CC1(C)OC2=CC(=O)C3C(=O)C=C(c4ccc(O)cc4)OC3C2=C(O)C1O ; read by: ELISA ; cell line: C8166 ; measure: EC50 ; strain: IIIB ; value: 0.9 µM
O=C1Nc2ccc(Cl)cc2[C@@](C#CC2CC2)(C(F)(F)F)[C@H]1OCc1ccncc1 ; cell line: MT-2 ; measure: EC50 ; strain: RF ; value: <0.019 µM
COc1cc2oc3cccc(O)c3c(=O)c2c2c1OC(C)(C)C=C2 ; read by: ELISA ; cell line: C8166 ; measure: EC50 ; strain: IIIB ; value: 183.4 µM
CCCCCCCCCC[N+](C)(C)CCCNCc1c(O)cc2c(c1O)-c1cc(ccc1O)[C@H]1NC(=O)[C@@H]3NC(=O)C4NC(=O)[C@@H](Cc5ccc(c(Cl)c5)Oc5cc3cc(c5O)Oc3ccc(cc3Cl)[C@@H](O)[C@H](NC1=O)C(=O)N[C@@H]2C(=O)O)NC(=O)[C@H](N)c1ccc(O)c(c1)Oc1cc(O)cc4c1 ; read by: syncytia ; cell line: CEM ; measure: EC50 ; changes: RT-Y181C ; value: 8.5 µM
CCC(C)C(NC(=O)c1ccccc1SSc1ccccc1C(=O)NC(C(=O)O)C(C)CC)C(=O)O ; read by: cytopathic effect / XTT ; cell line: CEM + CEM-SS ; measure: EC50 ; strain: IIIB ; value: 1.6 µM
C#C[C@]1(COC(C)=O)O[C@@H](n2cnc3c(N)nc(F)nc32)C[C@@H]1O ; cell line: U373-CD4-CXCR4 ; setting: pseudotyped ; measure: EC50 ; strain: NL4-3 ; changes: M184V ; value: 0.055 µM
Cc1nc2ccccc2c(-c2cc(F)c3c(c2C)CCCO3)c1[C@H](OC(C)(C)C)C(=O)O ; read by: luminescence ; cell line: MT-4 ; measure: EC50 ; strain: NL4-3 ; changes: L102F ; value: 3.05 µM
CCC1(C)CCN(c2c(-c3ccc(OCCCC(F)(F)F)cn3)cnc(C)c2[C@H](OC(C)(C)C)C(=O)O)CC1 ; read by: luminescence ; cell line: MT-2 ; measure: EC50 ; strain: NL4-3 ; value: 2.8 µM
Nc1nc(NC2CC2)c2ncn([C@H]3CO[C@@H](CO)O3)c2n1 ; read by: RT activity ; cell line: MT-2 ; measure: EC50 ; strain: IIIB BCH-13520-resistant (RT K65R) ; changes: RT-K65R ; value: 0.57 µM
CN1C(c2c(Cl)cccc2Cl)c2ccccc2S1(=O)=O ; read by: p24 / RT activity ; measure: EC50 ; value: 5.09 µM
Cc1cccc(C)c1N1C(=O)c2ccccc2C1=O ; read by: syncytia ; cell line: CEM ; measure: EC50 ; strain: IIIB ; value: >784 µM
CC(C)(C)NC(=O)[C@@H]1CN(Cc2cccnc2)CCN1C[C@@H](O)C[C@@H](Cc1ccccc1)C(=O)N[C@H]1c2ccccc2C[C@H]1O ; read by: p24 / ELISA ; cell line: HEK293T ; measure: EC90 ; strain: LAI ; value: 0.0009–0.0018 µM
Cc1cn([C@H]2C=C[C@@H](CO)O2)c(=O)[nH]c1=O ; read by: p24 ; cell line: PBMC ; measure: EC50 ; strain: IIIB ; value: 0.018 µM
CC(C)N1C(c2ccccc2)c2ccccc2S1(=O)=O ; read by: p24 / RT activity ; measure: EC50 ; value: 3.23 µM
Cc1cccc(C)c1NC(=O)c1ccc(N)cc1 ; read by: syncytia ; cell line: CEM ; measure: EC50 ; strain: IIIB ; value: >165 µM
CC(=O)NS(=O)(=O)c1ccc(NC(=O)c2ccccc2SSc2ccccc2C(=O)Nc2ccc(S(=O)(=O)NC(C)=O)cc2)cc1 ; read by: p24 ; cell line: Monocytes/macrophages ; measure: EC50 ; strain: ADA ; value: 9.4 µM
CCCCOc1ccc(-c2cnc(C)c([C@H](OC(C)(C)C)C(=O)O)c2N2CCC3CCCCC3C2)nc1 ; read by: luminescence ; cell line: MT-2 ; measure: EC50 ; strain: NL4-3 ; value: 31.8 µM
C#C[C@]1(COC(=O)CCCCCCCCCCCCCC)O[C@@H](n2cnc3c(N)nc(F)nc32)C[C@@H]1O ; cell line: U373-CD4-CXCR4 ; setting: pseudotyped ; measure: EC50 ; strain: NL4-3 ; changes: M184V ; value: 0.011 µM
Nc1ccc(CO[C@H]2C(=O)Nc3ccc(Cl)cc3[C@@]2(C#CC2CC2)C(F)(F)F)cc1 ; cell line: MT-2 ; measure: EC50 ; changes: RT-L100I K103N ; value: <3.848 µM
COc1cc2c(OC3OC(C)C(OC4OC(CO)C(O)C(O)C4O)C(O)C3OC(C)=O)c3c(c(-c4ccc5c(c4)OCO5)c2cc1OC)C(=O)OC3 ; read by: p24 / ELISA ; cell line: PBMC ; measure: EC50 ; strain: N119 ; value: 0.495 µM
O=C1Nc2ccc(Cl)cc2[C@@](C#CC2CC2)(C(F)(F)F)[C@H]1OCc1ccc(F)cc1 ; cell line: MT-2 ; measure: EC50 ; strain: RF ; value: <0.112 µM
C=C(C)[C@@H]1CC[C@]2(C(=O)OC[C@@H]3OC(n4ccc(N(C(=O)OCC)C(=O)OCC)nc4=O)CS3)CC[C@]3(C)[C@H](CC[C@@H]4[C@@]5(C)CC[C@H](O)C(C)(C)[C@@H]5CC[C@]43C)[C@@H]12 ; cell line: MT-4 ; measure: EC50 ; strain: IIIB ; value: 5 µM
C=C(C)C(=O)NC(=O)N[C@@H]1OC(CO[Si](C)(C)C(C)(C)C)C2(OS(=O)(=O)C=C2N)C1O[Si](C)(C)C(C)(C)C ; cell line: CEM + CEM/0 ; measure: EC50 ; value: 0.6 µM
C=CC(C)(C)c1cc2ccc(O)c(OC)c2oc1=O ; read by: ELISA ; cell line: C8166 ; measure: EC50 ; strain: IIIB ; value: 10.7 µM
Cc1cc(C)cc(S(=O)(=O)c2c(C(N)=O)[nH]c3c(Cl)cc(Cl)cc23)c1 ; read by: cytopathic effect / MTT / p24 ; cell line: MT-4 ; measure: EC50 ; strain: IIIB ; value: 1.6 µM
COc1cc(-c2ccc(N=Nc3ccc4c(S(=O)(=O)O)cc(S(=O)(=O)O)c(N)c4c3O)c(OC)c2)ccc1N=Nc1ccc2c(S(=O)(=O)O)cc(S(=O)(=O)O)c(N)c2c1O ; read by: cytopathic effect / XTT ; cell line: CEM + CEM-SS ; measure: EC50 ; strain: ED ; value: 0.5 µM
CCc1c(C(=O)c2cc(F)cc(F)c2)n(Cc2ccccn2)c(=O)[nH]c1=O ; read by: cytopathic effect / MTT ; cell line: MT-4 ; measure: EC50 ; value: 0.1189 µg/mL
CC(=O)N[C@@H]1OC(CO[Si](C)(C)C(C)(C)C)C2(OS(=O)(=O)C=C2N)C1O[Si](C)(C)C(C)(C)C ; cell line: CEM + CEM/0 ; measure: EC50 ; value: 2.4 µM
O=C1c2ccc([N+](=O)[O-])cc2C(=O)N1C12CC3CC(CC(C3)C1)C2 ; read by: syncytia ; cell line: CEM ; measure: EC50 ; strain: IIIB ; value: >304 µM
CC1=C(C(=O)OCc2ccccc2)C(/C=C/c2ccccc2)NC(=O)N1 ; read by: p24 / ELISA ; cell line: HEK293T ; measure: EC50 ; value: >100 µM
CC1(C)CC=C(c2cn(-c3nccc(C(=O)NC4CCC(N5CC6CCC(C5)O6)CC4)n3)c3ccc(F)c([C@H](OC(C)(C)C)C(=O)O)c23)CC1 ; read by: luminescence ; cell line: MT-4 ; measure: EC50 ; strain: NL4-3 ; changes: D167E ; value: 0.0033 µM
Nc1ccc2c(c1)C(=O)N(C13CC4CC(CC(C4)C1)C3)C2=O ; read by: syncytia ; cell line: CEM ; measure: EC50 ; strain: IIIB ; value: >16 µM
C#C[C@]1(COC(=O)C(CCC)CCC)O[C@@H](n2cnc3c(N)nc(F)nc32)C[C@@H]1O ; cell line: U373-CD4-CXCR4 ; setting: pseudotyped ; measure: EC50 ; strain: NL4-3 ; changes: M184V ; value: 0.111 µM
C=C(C)C1Cc2cc3ccc(=O)oc3cc2O1 ; read by: ELISA ; cell line: C8166 ; measure: EC50 ; strain: IIIB ; value: 145.8 µM
CC(O)CCCCCC(CCCCCCCCCCCCCC1CC(=O)OC[C@H]2O[C@@H](OC(CCCCCCCCCCCC(CCCCCC(C)O)O[C@@H]3O[C@H](CO)[C@@H](O)[C@H](O)[C@H]3O)CC(=O)OC[C@@H]3O[C@H](O1)[C@@H](O)[C@H](O)[C@H]3O)[C@H](O)[C@@H](O)[C@@H]2O)O[C@@H]1O[C@H](CO)[C@@H](O)[C@H](O)[C@H]1O ; read by: β-galactosidase ; cell line: MAGI (CCR5) + MAGI ; measure: EC50 ; strain: JR-FL ; value: 3.5 µg/mL
COC(=O)c1cc2c(c(OC)c1-c1ccc(N(C)C)cc1)OCO2 ; read by: p24 / ELISA ; cell line: C8166 ; measure: EC50 ; strain: IIIB ; value: 0.16 µg/mL
CCC1(C)CCN(c2c(-c3ccc(OCC4CCOCC4)cn3)cnc(C)c2[C@H](OC(C)(C)C)C(=O)O)CC1 ; read by: luminescence ; cell line: MT-2 ; measure: EC50 ; strain: NL4-3 ; value: 2 µM
C=CC(C)(C)C1C2=C(C=CC(C)(C)O2)C(OC)=C2C=CC(=O)OC21 ; read by: ELISA ; cell line: C8166 ; measure: EC50 ; strain: IIIB ; value: 9.5 µM
Cc1cc(C)cc(Oc2c(C(C)C)c(=O)[nH]c(=O)n2Cc2ccncc2)c1 ; read by: cytopathic effect / MTT ; cell line: MT-4 ; measure: EC50 ; value: 0.01 µg/mL
Cc1ccc([C@H]2c3ccccc3S(=O)(=O)N2C)cc1 ; read by: p24 / RT activity ; measure: EC50 ; value: 1.53 µM
Cc1cc(Cl)cc(C(=O)c2c(C(C)C)c(=O)[nH]c(=O)n2Cc2cc(C)nc(C)c2)c1 ; read by: cytopathic effect / MTT ; cell line: MT-4 ; measure: EC50 ; value: 0.0021 µg/mL
Cc1cn([C@H]2C=C[C@@H](COC(=O)NCCc3ccc(Br)cc3)O2)c(=O)[nH]c1=O ; read by: p24 ; cell line: PBMC ; measure: EC50 ; strain: IIIB ; value: 49.5 µM
C=CCN(C(=O)OCc1ccc([N+](=O)[O-])cc1)C1CCN(C[C@H]2CN(C(=O)C3CCCC3)C[C@]2(O)c2ccccc2)CC1 ; read by: p24 ; cell line: PBMC ; measure: EC50 ; strain: 20678 R5 CLADE B ; value: 0.0028 µM
CCc1c(Sc2cc(Cl)cc(Cl)c2)n(Cc2ccncc2)c(=O)[nH]c1=O ; read by: cytopathic effect / MTT ; cell line: MT-4 ; measure: EC50 ; value: 0.003 µg/mL
CC(C)=CCOc1cc(NC(=S)c2ccsc2C)ccc1Cl ; read by: p24 ; cell line: CEM + CEM-SS ; measure: EC50 ; strain: NL4-3 ; changes: RT-Y188C ; value: 0.006 µM
CC1(C)O[C@H]2CC(=O)OC[C@]23[C@H]2CC[C@@]4(C)[C@H](c5ccoc5)OC(=O)[C@H]5O[C@]54[C@]2(C)C(=O)C[C@@H]13 ; read by: ELISA ; cell line: C8166 ; measure: EC50 ; strain: IIIB ; value: >340.4 µM
Cc1ncc(-c2ccc(OCC(C)C)cn2)c(N2CCC(C)(C#N)CC2)c1[C@H](OC(C)(C)C)C(=O)O ; read by: luminescence ; cell line: MT-2 ; measure: EC50 ; strain: NL4-3 ; value: 6.5 µM
C#C[C@]1(COC(=O)CCCCCC)O[C@@H](n2cnc3c(N)nc(F)nc32)C[C@@H]1O ; cell line: U373-CD4-CXCR4 ; setting: pseudotyped ; measure: EC50 ; strain: NL4-3 ; changes: M184V ; value: 0.015 µM
Cc1ncc(-c2ccc(OCC3CCC3)cn2)c(N2CCC3(CCCC3)CC2)c1[C@H](OC(C)(C)C)C(=O)O ; read by: luminescence ; cell line: MT-2 ; measure: EC50 ; strain: NL4-3 ; value: 14.5 µM
CCc1c(C(=O)c2cc(C(F)(F)F)cc(C(F)(F)F)c2)n(Cc2ccncc2)c(=O)[nH]c1=O ; read by: cytopathic effect / MTT ; cell line: MT-4 ; measure: EC50 ; value: 1.935 µg/mL
Cc1ncc(-c2ccc(OCC(C)C)cn2)c(N2CCC3(CCCC3)CC2)c1[C@H](OC(C)(C)C)C(=O)O ; read by: luminescence ; cell line: MT-2 ; measure: EC50 ; strain: NL4-3 ; value: 6.7 µM
CC1=C(C(=O)OCc2ccccc2)C(c2cccs2)NC(=O)N1 ; read by: p24 / ELISA ; cell line: HEK293T ; measure: EC50 ; value: >100 µM

Neighbouring rows are from separate reports. Two numbers with a dash give a range or band.